Data taken from patent US20110247088.

Amino acid sequences for entries named in this document (tags omitted). A change or cut given only in a name is not applied to a line headed by its entry.
UniProt P04483: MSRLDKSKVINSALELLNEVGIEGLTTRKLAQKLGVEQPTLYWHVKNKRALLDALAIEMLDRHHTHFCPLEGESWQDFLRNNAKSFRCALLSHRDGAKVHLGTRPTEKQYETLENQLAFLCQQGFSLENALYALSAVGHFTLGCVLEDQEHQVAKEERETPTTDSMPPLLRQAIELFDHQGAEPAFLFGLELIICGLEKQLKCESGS

Target: reverse tetracycline-dependent transactivator M2 (rtTA-M2, Tet-On Advanced) (UniProt P04483)
Test: activity in cells
Conditions: HEK293, +/- doxycycline; functional readout; protein in cells

| Sequence | activity on this sequence |
| --- | --- |
| TTTACTCCCTATCAGTGATAGAGAACGTATGAAGAGTTTACTCCCTATCAGTGATAGAGAACGTATGCAGACTTTACTCCCTATCAGTGATAGAGAACGTATAAGGAGTTTACTCCCTATCAGTGATAGAGAACGTATGACCAGTTTACTCCCTATCAGTGATAGAGAACGTATCTACAGTTTACTCCCTATCAGTGATAGAGAACGTATATCCAGTTTACTCCCTATCAGTGATAGAGAACGTATAAGCTTCCAGGGCGCCTATAAAAGAGTGCTGATTTTTTGAGTAAACTTGCAACAGTCCTAACATTCTTCTCTCGTGTGTTTGTGTCTGTTCGCCATCCCGTCTCCGCTCGTCACTTATCCTTCACTTTTCAGAGGGTCCCCCCGCAGATCCCGGTCACCCTCAGGTCGG (double strand) [Ptet-T10] | active |
| TTTACTCCCTATCAGTGATAGAGAACGTATGAAGAGTTTACTCCCTATCAGTGATAGAGAACGTATGCAGACTTTACTCCCTATCAGTGATAGAGAACGTATAAGGAGTTTACTCCCTATCAGTGATAGAGAACGTATGACCAGTTTACTCCCTATCAGTGATAGAGAACGTATCTACAGTTTACTCCCTATCAGTGATAGAGAACGTATATCCAGTTTACTCCCTATCAGTGATAGAGAACGTATAAGCTTCCATAATATAAAAGAGTGCTGATTTTTTGAGTAAACTTGCAACAGTCCTAACATTCTTCTCTCGTGTGTTTGTGTCTGTTCGCCATCCCGTCTCCGCTCGTCACTTATCCTTCACTTTTCAGAGGGTCCCCCCGCAGATCCCGGTCACCCTCAGGTCGG (double strand) [Ptet-T9] | active |
| TTTACTCCCTATCAGTGATAGAGAACGTATGAAGAGTTTACTCCCTATCAGTGATAGAGAACGTATGCAGACTTTACTCCCTATCAGTGATAGAGAACGTATAAGGAGTTTACTCCCTATCAGTGATAGAGAACGTATGACCAGTTTACTCCCTATCAGTGATAGAGAACGTATCTACAGTTTACTCCCTATCAGTGATAGAGAACGTATATCCAGTTTACTCCCTATCAGTGATAGAGAACGTATAAGCTTGCCTATGTTCTTTTGGAATCTATCCAAGTCTTATGTAAATGCTTATGTAAACCATAATATAAAAGAGTGCTGATTTTTTGAGTAAACTTGCAACAGTCCTAACATTCTTCTCTCGTGTGTTTGTGTCTGTTCGCCATCCCGTCTCCGCTCGTCACTTATCCTTCACTTTTCAGAGGGTCCCCCCGCAGATCCCGGTCACCCTCAGGTCGG (double strand) [Ptet-T8] | active |
| TTTACTCCCTATCAGTGATAGAGAACGTATGAAGAGTTTACTCCCTATCAGTGATAGAGAACGTATGCAGACTTTACTCCCTATCAGTGATAGAGAACGTATAAGGAGTTTACTCCCTATCAGTGATAGAGAACGTATGACCAGTTTACTCCCTATCAGTGATAGAGAACGTATCTACAGTTTACTCCCTATCAGTGATAGAGAACGTATATCCAGTTTACTCCCTATCAGTGATAGAGAACGTATAAGCTTTGCTTATGTAAACCAGGGCGCCTATAAAAGAGTGCTGATTTTTTGAGTAAACTTCAATTCCACAACACTTTTGTCTTATACCAACTTTCCGTACCACTTCCTACCCTCGTAAA (double strand) [Ptet-T11] | active |

Construct, isoform or probe ends are uncertain for at least one entry.
